Measured values from several laboratories, pooled; numbers as filed in NIAID ChemDB.

All rows: growth or infection tests; organism: Aspergillus clavatus; endpoint: MIC

Neighbouring rows are from separate reports. An empty or dashed field is not shown.

| smiles | strain | method | result |
|---|---|---|---|
| O=C(CSc1nnc(-c2ccc3ncccc3c2)o1)Nc1nc2ccc([N+](=O)[O-])cc2s1 | - | agar | 25 µg/mL |
| O=C(NN1C(=O)/C(=C/c2cc3ccccc3nc2Cl)N=C1c1ccccc1)c1ccccc1 | MTCC 1323 | broth dilution | 1000 µg/mL |
| N#Cc1ccc(Nc2nc(Oc3cccc4cccnc34)nc(N3CCN(c4cccc(Cl)c4)CC3)n2)cc1C(F)(F)F | MTCC 1323 | agar | 12.5 µg/mL |
| N#Cc1c(-c2ccc(O)cc2)cc(-c2cc3cc(F)ccc3oc2=O)nc1NS(=O)(=O)c1ccccc1 | MTCC 1323 | turbidity | 500 µg/mL |
| CN1CCN(c2nc(Nc3ccc(C#N)c(C(F)(F)F)c3)nc(Oc3ncnc4ccccc34)n2)CC1 | MTCC 1323 | - | >100 µg/mL |
| Cc1ccc(NC(=O)CSc2nnc(-c3ccc4ncccc4c3)o2)cc1 | - | agar | 100 µg/mL |
| Cc1ccc(N2NOC(=O)C2S(=O)(=O)Nc2nc3c([N+](=O)[O-])cccc3s2)cc1 | MTCC323 | broth dilution | 500 µg/mL |
| O=C(NN1C(=O)/C(=C/c2cc3ccccc3nc2Cl)N=C1c1ccccc1)c1ccc(Cl)cc1O | MTCC 1323 | broth dilution | 500 µg/mL |
| COc1ccc(/C=C2/SC(=O)N(CC(=O)Nc3nc4ccc(SC#N)cc4s3)C2=O)cc1 | MTCC 1323 | broth dilution / visual reading | 1000 µg/mL |
| O=C(CSc1nnc(-c2ccc3ncccc3c2)o1)Nc1ccccc1 | - | agar | 100 µg/mL |
| N#Cc1c(-c2cccc(Cl)c2)cc(-c2cc3cc(F)ccc3oc2=O)nc1NS(=O)(=O)c1ccccc1 | MTCC 1323 | turbidity | >1000 µg/mL |
| Cc1nn(-c2ccccc2)c2c1C(c1ccccc1Cl)c1c(nc(=S)[nH]c1N)O2 | MTCC 1323 | - | >1000 µg/mL |
| O=C(CSc1nnc(-c2ccc3ncccc3c2)o1)Nc1nc2ccc(F)cc2s1 | - | agar | 100 µg/mL |
| O=C(NN1C(=O)/C(=C/c2cc3ccccc3nc2Cl)N=C1c1ccccc1)c1ccc(Cl)cc1 | MTCC 1323 | broth dilution | 500 µg/mL |
| O=C1CSC(=O)N1 | MTCC 1323 | broth dilution / visual reading | >1000 µg/mL |
| Cc1cccc(-c2cc(-c3cc4cc(F)ccc4oc3=O)nc(NS(=O)(=O)c3ccccc3)c2C#N)c1 | MTCC 1323 | turbidity | 500 µg/mL |
| N#CSc1ccc2nc(NC(=O)CN3C(=O)S/C(=C/c4cccc(Br)c4)C3=O)sc2c1 | MTCC 1323 | broth dilution / visual reading | >1000 µg/mL |
| CN1CCN(c2nc(Nc3ccc(C#N)c(C(F)(F)F)c3)nc(Oc3cccc4cccnc34)n2)CC1 | MTCC 1323 | agar | 100 µg/mL |
| O=C(CSc1nnc(-c2ccc3ncccc3c2)o1)Nc1ccc(Cl)cc1 | - | agar | 50 µg/mL |
| O=C1NC(=O)/C(=C\c2ccc(F)cc2)S1 | MTCC 1323 | broth dilution / visual reading | 500 µg/mL |
| N#Cc1ccc(Nc2nc(Oc3ncnc4ccccc34)nc(N3CCN(c4ccccc4)CC3)n2)cc1C(F)(F)F | MTCC 1323 | - | >100 µg/mL |
| COc1cc(/C=C2/SC(=O)N(CC(=O)Nc3nc4ccc(SC#N)cc4s3)C2=O)ccc1O | MTCC 1323 | broth dilution / visual reading | 500 µg/mL |
| CC(=O)N1CCN(c2nc(Nc3ccc(C#N)c(C(F)(F)F)c3)nc(Oc3cccc4cccnc34)n2)CC1 | MTCC 1323 | agar | 6.25 µg/mL |
| N#CSc1ccc2nc(NC(=O)CN3C(=O)S/C(=C/c4ccc(Cl)cc4)C3=O)sc2c1 | MTCC 1323 | broth dilution / visual reading | >1000 µg/mL |
| Cc1nn(-c2ccccc2)c2c1C(c1ccccc1)C(C#N)=C(N)O2 | MTCC 1323 | - | 500 µg/mL |
| O=C(NN1C(=O)/C(=C/c2cc3ccccc3nc2Cl)N=C1c1ccccc1)c1ccncc1 | MTCC 1323 | broth dilution | 100 µg/mL |
| N#Cc1ccc(Nc2nc(Oc3ncnc4ccccc34)nc(N3CCN(c4ncccn4)CC3)n2)cc1C(F)(F)F | MTCC 1323 | - | >100 µg/mL |
| N#Cc1ccc(Nc2nc(Oc3cccc4cccnc34)nc(N3CCOCC3)n2)cc1C(F)(F)F | MTCC 1323 | agar | 25 µg/mL |
| N#Cc1c(-c2ccc(F)cc2)cc(-c2cc3cc(F)ccc3oc2=O)nc1NS(=O)(=O)c1ccccc1 | MTCC 1323 | turbidity | 1000 µg/mL |
| O=C(CSc1nnc(-c2ccc3ncccc3c2)o1)Nc1nc2ccc(Cl)cc2s1 | - | agar | 50 µg/mL |
| Cc1nn(-c2ccccc2)c2c1C(c1cccc(Cl)c1)c1c(nc(=S)[nH]c1N)O2 | MTCC 1323 | - | 1000 µg/mL |
| CCOc1ccc2nc(NS(=O)(=O)C3C(=O)ONN3c3ccc(C)cc3)sc2c1 | MTCC323 | broth dilution | 250 µg/mL |
| CCN1CCN(c2nc(Nc3ccc(C#N)c(C(F)(F)F)c3)nc(Oc3ncnc4ccccc34)n2)CC1 | MTCC 1323 | - | >100 µg/mL |
| COc1ccc(-c2nc3ccccc3c(=O)n2-c2ccc(NS(=O)(=O)C3C(=O)ONN3c3ccc(C)cc3)cc2)cc1 | MTCC323 | broth dilution | 250 µg/mL |
| Cc1nn(-c2ccccc2)c2c1C(c1ccc(F)cc1)c1c(nc(=S)[nH]c1N)O2 | MTCC 1323 | - | 1000 µg/mL |
| COc1cc(/C=C2/SC(=O)NC2=O)ccc1O | MTCC 1323 | broth dilution / visual reading | 500 µg/mL |
| Cc1ccc(N2NOC(=O)C2S(=O)(=O)Nc2ccc(-n3c(-c4ccccc4[N+](=O)[O-])nc4ccccc4c3=O)cc2)cc1 | MTCC323 | broth dilution | 1000 µg/mL |
| CCOc1ccc(NC(=O)CSc2nnc(-c3ccc4ncccc4c3)o2)cc1 | - | agar | 100 µg/mL |

Repeating the final 5 entries:

{"smiles": "COc1ccc(-c2nc3ccccc3c(=O)n2-c2ccc(NS(=O)(=O)C3C(=O)ONN3c3ccc(C)cc3)cc2)cc1", "strain": "MTCC323", "method": "broth dilution", "result": "250 µg/mL"}
{"smiles": "Cc1nn(-c2ccccc2)c2c1C(c1ccc(F)cc1)c1c(nc(=S)[nH]c1N)O2", "strain": "MTCC 1323", "result": "1000 µg/mL"}
{"smiles": "COc1cc(/C=C2/SC(=O)NC2=O)ccc1O", "strain": "MTCC 1323", "method": "broth dilution / visual reading", "result": "500 µg/mL"}
{"smiles": "Cc1ccc(N2NOC(=O)C2S(=O)(=O)Nc2ccc(-n3c(-c4ccccc4[N+](=O)[O-])nc4ccccc4c3=O)cc2)cc1", "strain": "MTCC323", "method": "broth dilution", "result": "1000 µg/mL"}
{"smiles": "CCOc1ccc(NC(=O)CSc2nnc(-c3ccc4ncccc4c3)o2)cc1", "method": "agar", "result": "100 µg/mL"}